# Source: patent US10039758B2 (priority 2014, dated 2018)
# By UniProt entry, the sequences of proteins in these tests, tags left out. Residues count along the entry.
# UniProt P15917, 34-809 limits assumed: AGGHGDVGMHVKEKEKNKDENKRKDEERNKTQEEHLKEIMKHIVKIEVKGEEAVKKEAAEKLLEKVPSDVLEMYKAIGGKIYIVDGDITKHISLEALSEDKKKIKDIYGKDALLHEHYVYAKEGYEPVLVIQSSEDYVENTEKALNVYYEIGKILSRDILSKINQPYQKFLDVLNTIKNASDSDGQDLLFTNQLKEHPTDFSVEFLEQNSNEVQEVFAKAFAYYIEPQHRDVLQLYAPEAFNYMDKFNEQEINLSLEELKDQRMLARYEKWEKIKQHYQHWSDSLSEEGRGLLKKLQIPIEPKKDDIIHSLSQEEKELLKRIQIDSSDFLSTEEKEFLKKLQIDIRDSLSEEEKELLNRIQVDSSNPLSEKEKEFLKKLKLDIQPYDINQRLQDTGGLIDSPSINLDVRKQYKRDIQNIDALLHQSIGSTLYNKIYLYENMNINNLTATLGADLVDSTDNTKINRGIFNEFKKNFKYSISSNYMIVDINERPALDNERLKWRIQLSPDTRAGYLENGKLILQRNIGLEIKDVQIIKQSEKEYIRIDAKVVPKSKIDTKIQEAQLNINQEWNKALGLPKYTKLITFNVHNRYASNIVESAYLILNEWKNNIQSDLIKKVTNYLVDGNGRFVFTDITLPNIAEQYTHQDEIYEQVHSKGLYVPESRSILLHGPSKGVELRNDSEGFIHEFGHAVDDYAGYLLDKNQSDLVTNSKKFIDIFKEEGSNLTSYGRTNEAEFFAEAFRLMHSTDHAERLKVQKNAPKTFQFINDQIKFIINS
# Biological target: LF (Bacillus anthracis, UniProt P15917)
# Assay type: biochemical
substance,measurement,value
surfen hydrate,proteolytic activity of LF on MAPKK peptide (emission at 523 nm),no emission at 523 nm was observed
